The assay addresses pathologically-altered prion protein (PrP^Sc) from BSE-positive cattle (cattle), P10279.
Regarding GVVIA [Peptide 6 (Gly-Val-Val-Ile-Ala)], the Efficiency (relative PrP^Sc binding efficiency, peptide 2 = 100%) turned out to be 64.5%.
As to RVVIA [Peptide 1 (Arg-Val-Val-Ile-Ala)], the Efficiency (relative PrP^Sc binding efficiency, peptide 2 = 100%) is 54.7%.
The same measure for RIIGL [Peptide 5 (Propionyl-Arg-Ile-Ile-Gly-Leu)]: 58.1%; for IIGL [Peptide 4 (Propionyl-Ile-Ile-Gly-Leu)]: 55.1%.
Molecule KLVFF [Peptide 2 (Lys-Leu-Val-Phe-Phe)] came in with an Efficiency (relative PrP^Sc binding efficiency, peptide 2 = 100%) of 100%.
In turn, LPFFD [Peptide 3 (Leu-Pro-Phe-Phe-Asp)] came in with an Efficiency (relative PrP^Sc binding efficiency, peptide 2 = 100%) of 46.6%.

Values taken from US20060094071A1, “Method for enriching and tracking pathologic modified prions-proteins(prpsc)” (priority 2002, published 2006).
